In patent US9988341B2, “Bacterial topoisomerase inhibitors and use thereof” (THE FLORIDA INTERNATIONAL UNIVERSITY BOARD OF TRUSTEES, priority 2016, dated 2018):

test system: Mtb CDC1551 Mtb::lux; assay type: cell-based, M. tuberculosis; settings: ratio CC50 / IC50

Question: For `CCCC[C@@H](CN[C@H](CN)CCCCNC)NCc1cccc2ccccc12` [Compound 2471-12, (S)—N6-methyl-N2-((S)-2-(naphthalen-1-ylmethylamino)hexyl)hexane-1,2,6-triamine], which SI is on record?
Answer: Its SI is 15.4.

Question: `CCCC[C@@H](CN[C@@H](CN)CCCCNC)NCc1cccc2ccccc12` [Compound 2471-36] was tested. Which SI did it give?
Answer: Its SI is 11.2.

Question: With `CCCC[C@@H](CN[C@H](CN)CCN)NCc1cccc2ccccc12` [Compound 2471-24, (S)—N2-((S)-2-(naphthalen-1-ylmethylamino)hexyl)butane-1,2,4-triamine] as the molecule, how does the SI read?
Answer: Its SI is 12.
